Experimental data reported in paper PMC8619001, “Discovery of New Ginsenol-Like Compounds with High Antiviral Activity” (Molecules, 2021).

How the values were obtained:
[1] = system: influenza virus A/Puerto Rico/8/34 (H1N1); assay: CPE reduction (cytoprotection) assay in MDCK cells; type: cell-based; conditions: ratio CC50/IC50, A/Puerto Rico/8/34 (H1N1)
[2] = system: A/California/7/2009 (H1N1) pdm09; assay: Cytoprotection assay in MDCK cells; type: cell-based, influenza virus A/California/07/09 (H1N1)pdm09; conditions: ratio CC50/IC50, A/California/7/2009 (H1N1) pdm09
[3] = system: A/Vladivostok/2/2009 (H1N1); assay: Cytoprotection assay in MDCK cells; type: cell-based; conditions: ratio CC50/IC50, A/Vladivostok/2/2009 (H1N1)
A/Anhui/1/2013 (H7N9) = assay: Cytoprotection assay in MDCK cells; type: cell-based, influenza virus A/Anhui/1/2013 (H7N9); conditions: ratio CC50/IC50, A/Anhui/1/2013 (H7N9)
[4] = system: A/Mallard/Pennsylvania/1984 (H5N2); assay: Cytoprotection assay in MDCK cells; type: cell-based, influenza virus A/mallard/Pennsylvania/10218/84 (H5N2); conditions: ratio CC50/IC50, A/Mallard/Pennsylvania/1984 (H5N2)
[5] = system: B/Florida/4/2006 (Yamagata-like); assay: Cytoprotection assay in MDCK cells; type: cell-based, influenza virus B/Florida/4/2006 (Yamagata-like); conditions: ratio CC50/IC50, B/Florida/4/2006 (Yamagata-like)
[6] = system: influenza virus A/Puerto Rico/8/34 (H1N1), control virus (C)

SMILES	SI [1]	SI [2]	SI [3]	SI (A/Anhui/1/2013 (H7N9))	SI [4]	SI [5]	IC50 [6]
CC(=O)NC12CC(C)(C)C3CCC1(C)CCCC32C [Compound 1a, (1S,3aR,4R,7aS)-N-(2,2,4,7a-tetramethyloctahydro-1,4-etanoinden-3a-yl)-acetamide]	7500	107	3000	9	9	1	23.6 µM
CCOC(=O)C1=C[C@@H](OC(CC)CC)[C@H](NC(C)=O)[C@@H](N)C1 [Oseltamivir, reference compound]	645						
